Results of unrelated studies side by side (data: NIAID ChemDB).

MIC bound comes from a single tested concentration.

SMILES	test	organism	strain or isolate	cell line	target	method	setting	measure	tested at	result
O=c1[nH]c(=O)n(-c2ccc([N+](=O)[O-])cc2[N+](=O)[O-])cc1[N+](=O)[O-]	culture	Mycobacterium tuberculosis						inhibition	6.25 µg/mL	93%
ClP1(Cl)=NP(Cl)(Cl)=NP(c2ccccc2)(c2ccccc2)=N1	culture	Mycobacterium tuberculosis	H37Rv			BACTEC		MIC		≥128 µg/mL
O=[N+]([O-])c1cc(Cn2nnc(-c3cc([N+](=O)[O-])cc([N+](=O)[O-])c3)n2)cc([N+](=O)[O-])c1	culture	Mycobacterium kansasii	6509/96				21 d	MIC		4 µM
CC1COP(N(C(C)C)C(C)C)O1	culture	Mycobacterium tuberculosis	H37Rv			resazurin		inhibition	6.25 µg/mL	16%
O=[As](O)(O)c1ccccc1O	culture	Mycobacterium tuberculosis	H37Rv					MIC		>100 µg/mL
Cc1cn([C@H]2C[C@H](F)[C@@H](COP(=O)(O)C#N)O2)c(=O)[nH]c1=O	toxicity			MT-4				CC50		160 µM
O=C(Nc1ncc([N+](=O)[O-])s1)c1cc([N+](=O)[O-])cc([N+](=O)[O-])c1	culture	Mycobacterium tuberculosis	H37Rv			BACTEC		inhibition	12.5 µg/mL	-7%
Nc1cc([As]=O)ccc1O	culture	HIV-1	IIIB	PBL		p24		inhibition	0.6 µg/mL	100%
O=[N+]([O-])c1cccc2c1no[n+]2[O-]	culture	Mycobacterium tuberculosis	H37Rv			resazurin		inhibition	6.25 µg/mL	100%
O=[N+]([O-])c1cn(CC(O)CCl)c([N+](=O)[O-])n1	culture	Mycobacterium tuberculosis	H37Rv					MIC		0.97 µg/mL
CN(C)C(=O)Oc1cccn(C)c1=O	culture	Mycobacterium tuberculosis	H37Rv			resazurin		inhibition	6.25 µg/mL	49%
Cc1c([N+](=O)[O-])cc([N+](=O)[O-])c2oc3ccc([N+](=O)[O-])cc3c(=O)c12	culture	Mycobacterium smegmatis	ATCC 607					MIC		1.75 µg/mL
ClP(Oc1ccccc1)Oc1ccccc1	culture	Mycobacterium tuberculosis	H37Rv					MIC		>100 µg/mL
CC1=NO[C@@]2(CC[C@H](C)N3C[C@H]2n2cc(C(=O)NCc4ccc(F)cc4F)c(=O)c(OC(=O)N(C)Cc4ccc(OP(=O)(O)O)cc4)c2C3=O)C1	toxicity			MT-4		luminescence		CC50		50 µM
CCCC[As](=O)(O)O	culture	Mycobacterium tuberculosis	H37Rv					MIC		>100 µg/mL
O=[N+]([O-])c1ccc(S(=O)(=O)c2ccc([N+](=O)[O-])cc2[N+](=O)[O-])c([N+](=O)[O-])c1	target	HIV-2			Integrase	strand transfer		IC50		93 µM
N#Cc1c(SCCBr)nsc1-c1ccccc1	culture	Measles virus	Edmonston	HEP-2		plaque count		EC50		>25 µg/mL
Nc1cc([As](=O)(O)O)ccc1O	culture	Mycobacterium tuberculosis	H37Rv					MIC		>100 µg/mL
Cc1ccc(NCCCl)c2c(=O)c3ccccc3sc12	culture	Mycobacterium tuberculosis	H37Rv			BACTEC		MIC bound		>12.5 µg/mL

2 of the rows above, restated:

| SMILES | test | organism | strain or isolate | cell line | target | method | setting | measure | tested at | result |
|---|---|---|---|---|---|---|---|---|---|---|
| Cc1c([N+](=O)[O-])cc([N+](=O)[O-])c2oc3ccc([N+](=O)[O-])cc3c(=O)c12 | culture | Mycobacterium smegmatis | ATCC 607 |  |  |  |  | MIC |  | 1.75 µg/mL |
| O=[N+]([O-])c1cn(CC(O)CCl)c([N+](=O)[O-])n1 | culture | Mycobacterium tuberculosis | H37Rv |  |  |  |  | MIC |  | 0.97 µg/mL |

Blank or dashed fields: not listed here. Neighbouring rows are from separate reports. ICn: concentration for n% inhibition. CCn is the concentration with n% toxicity to the cells. Inhibition is in % at the dose shown (toxicity tests: loss of growth or viability). ECn is the concentration giving n% inhibition of infection, replication or growth.